A mixed list of measured activities; the numbers were collected in NIAID ChemDB.

Common to all: host cell toxicity; cells: PBMC; endpoint: CC50

Blank or dashed fields: not listed here. CCn: concentration that lowers growth or viability of the cells by n%. Rows are shuffled and stem from different studies.

structure	read by	result
COc1ccc(C)cc1NC(=O)NCCc1ccc2c(n1)NCCC2		5 µM
Nc1nc(Cl)c2ncn([C@@H]3O[C@@H](CO)C=C3F)c2n1		26.6 µM
O=C(NCCc1ccc2c(n1)NCCC2)Nc1cccc2ccccc12		0.6 µM
Cc1cn(CC(F)(F)C(F)(F)C(F)(F)CO)c(=O)[nH]c1=O		>100 µM
CCCCCCCCCCCCCCCCS(=S)CCOP(=O)(CO[C@H](C)Cn1cnc2c(N)ncnc21)OCC(C)C	XTT / absorbance	23.7 µM
CCOC(=O)[C@H](C)NP(=O)(OCC(F)(F)C(F)(F)Cn1cc(C)c(=O)[nH]c1=O)Oc1ccccc1		>100 µM
Cn1cc(C(=O)O)c(=O)c2cc(F)c(N3CC=C(c4ccccc4)CC3)c(C(F)(F)F)c21	MTT	3.2 µM
CCCCCCCCCCCCCCCC(=O)Nc1nc(N)nc2c1ncn2[C@H]1CO[C@@H](COP(=O)(N[C@@H](C)C(=O)OCC)Oc2ccccc2)O1		7.9 µM
CC(=O)SCCOP(=O)(OCCSC(C)=O)OC[C@@H]1C=C[C@H](n2cc(C)c(=O)[nH]c2=O)O1		22 µM
Nc1nc(=O)n([C@H]2O[C@@H](CO)C=C2F)cc1F		>100 µM
N=C1Sc2ccccc2C2=NCCCN12	LDH	200 µM
CCOc1ccc(C2(C#N)CC(=O)N2Cc2ccccc2)cc1	absorbance	>100 µM
CCOC(=O)[C@H](C)NP(=O)(OCC(F)(F)C(F)(F)Cn1cnc2c(N)ncnc21)Oc1ccccc1		>100 µM
Nc1ccn([C@H]2C[C@@H](CO)[C@H](O)[C@@H]2O)c(=O)n1		>100 µM
Nc1ncnc2c1ncn2[C@@H]1CC[C@H](CO)O1		>100 µM
Cc1nc(C(CN)NC(=O)c2ccc(-c3ccc4c(c3)OCO4)[nH]2)sc1CO	MTS	62.8 µM
CN(C(=O)CCc1ccc2c(n1)NCCC2)c1ccc(C(F)(F)F)cc1		22 µM
CCN(CC)C(=O)OC[C@H]1CN(C(=O)c2ccccc2)CCN1C(=O)C(=O)c1c[nH]c2nccc(OC)c12	MTT	>125 µM
Nc1nc2c(ncn2[C@H]2O[C@@H](CO)C=C2F)c(=O)[nH]1		>100 µM
CCOC(=O)[C@H](C)NP(=O)(OC[C@@H]1OC[C@H](n2cnc3c(N)nc(N)nc32)O1)Oc1ccccc1		67 µM
Nc1ccn([C@@H]2O[C@@H](CO)[C@H](O)C2(F)F)c(=O)n1		>100 µM
Nc1nc(Cl)c2ncn([C@H]3O[C@@H](CO)C=C3F)c2n1		>100 µM
Cc1ccc(N2C(=O)CCC2(C#N)c2ccc(OCc3ccc(Cl)cc3Cl)cc2)cc1	absorbance	9.7 µM
O=c1ccn(CC(F)(F)C(F)(F)CO)c(=O)[nH]1		>100 µM
CCCc1ccccc1NC(=O)NCCc1ccc2c(n1)NCCC2		1.3 µM
CC(C)OC(=O)[C@H](C)NP(=O)(OCC(F)(F)C(F)(F)C(F)(F)Cn1cnc2c(N)ncnc21)Oc1ccccc1		>100 µM
CCCCCCCCCCCCCC(=O)Nc1nc(N)nc2c1ncn2[C@H]1CO[C@@H](COP(=O)(N[C@@H](C)C(=O)OCC)Oc2ccccc2)O1		9.9 µM
Nc1ccn([C@H]2O[C@@H](CO)C=C2F)c(=O)n1		>100 µM
[N-]=[N+]=N[C@H]1C[C@H](N2CC(=O)NCC2=O)O[C@@H]1CO	XTT	>100 µM
N#CC(NCc1ccc(C=O)cc1)c1ccccc1	absorbance	23.5 µM
CCN1C(=O)NC(=O)C(C(C)C)C1CC1CC(C)CC(C#N)C1=O	MTT	>1000 µM
Cc1cn([C@H]2C=C[C@@H](CO)O2)c(=O)[nH]c1=O		>10 µM
Cc1onc(-c2ccccc2)c1NC(=S)NCCc1ccc2c(n1)NCCC2		50 µM
CCCCCCCCCC(=O)Nc1nc(N)nc2c1ncn2[C@H]1CO[C@@H](COP(=O)(N[C@@H](C)C(=O)OCC)Oc2ccccc2)O1		67 µM
O=C(NCCc1ccc2c(n1)NCCC2)Nc1cccc(-c2ccsc2)n1		5.4 µM
C[C@@H]1NC(=O)[C@H](C)N([C@H]2C[C@H](N=[N+]=[N-])[C@@H](CO)O2)C1=O	XTT	>100 µM
CCCC(=O)Nc1nc(N)nc2c1ncn2[C@H]1CO[C@@H](COP(=O)(N[C@@H](C)C(=O)OCC)Oc2ccccc2)O1		>100 µM
C[C@@H]1NC(=O)[C@H](C)N([C@H]2C[C@H](O)[C@@H](CO)O2)C1=O	XTT	>100 µM
COC(=O)[C@H](C)NP(=O)(OC[C@@H]1C=C[C@H](n2cc(C)c(=O)[nH]c2=O)O1)Oc1ccccc1		>10 µM
O=C(NCCc1ccnc(-n2ccnc2)n1)Nc1cccc(F)c1		50 µM
Cc1ccc(N2C(=O)CCC2(C#N)c2ccc(OCc3c(Cl)cccc3Cl)cc2)cc1	absorbance	14.1 µM
Nc1ccn(CC(F)(F)C(F)(F)CO)c(=O)n1		>100 µM
N#CC1(c2ccccc2)CCCN1C(=O)c1ccccc1Br	absorbance	>100 µM
CCn1cc(C(=O)O)c(=O)c2cc(F)c(N3CCN(c4ccccc4OC)CC3)c(OC(F)F)c21		22.9 µM
O=C(NCCc1ccc2c(n1)NCCC2)N[C@@H]1C[C@H]1c1ccccc1		5.5 µM
NCC1(c2ccc(OCc3ccccc3)cc2)CCC(=O)N1Cc1ccccc1	absorbance	15.7 µM
CC(=O)[O-].CC(=O)[O-].CCC1=C(CC)C2/C=C3\N=C(C=Nc4cc(OCCOCCOCCOC)c(OCCOCCOCCOC)cc4N=C/C=c4\[n-]/c(c(CCCO)c4C)=C\C1=N2)C(C)=C3CCCO.[Gd+3]	propidium iodide	~400 µM
Cc1ccc(S(=O)(=O)NCCc2ccc3c(n2)NCCC3)cc1		50 µM
Nc1nc(F)nc2c1ncn2[C@@H]1O[C@@H](CO)C=C1F		>100 µM
Cc1ccc(N2C(=O)CCC2(CN)c2ccccc2OCc2ccccc2)cc1	absorbance	45.2 µM